For at least one entry, the source does not settle the construct or the ends of the probe. Tags and fusion partners may be left off the protein sequences shown.
Target: T1, LiMRE11WT (Leishmania infantum) (UniProt A4I2Z5)
T1 sequence (looked up, limits assumed): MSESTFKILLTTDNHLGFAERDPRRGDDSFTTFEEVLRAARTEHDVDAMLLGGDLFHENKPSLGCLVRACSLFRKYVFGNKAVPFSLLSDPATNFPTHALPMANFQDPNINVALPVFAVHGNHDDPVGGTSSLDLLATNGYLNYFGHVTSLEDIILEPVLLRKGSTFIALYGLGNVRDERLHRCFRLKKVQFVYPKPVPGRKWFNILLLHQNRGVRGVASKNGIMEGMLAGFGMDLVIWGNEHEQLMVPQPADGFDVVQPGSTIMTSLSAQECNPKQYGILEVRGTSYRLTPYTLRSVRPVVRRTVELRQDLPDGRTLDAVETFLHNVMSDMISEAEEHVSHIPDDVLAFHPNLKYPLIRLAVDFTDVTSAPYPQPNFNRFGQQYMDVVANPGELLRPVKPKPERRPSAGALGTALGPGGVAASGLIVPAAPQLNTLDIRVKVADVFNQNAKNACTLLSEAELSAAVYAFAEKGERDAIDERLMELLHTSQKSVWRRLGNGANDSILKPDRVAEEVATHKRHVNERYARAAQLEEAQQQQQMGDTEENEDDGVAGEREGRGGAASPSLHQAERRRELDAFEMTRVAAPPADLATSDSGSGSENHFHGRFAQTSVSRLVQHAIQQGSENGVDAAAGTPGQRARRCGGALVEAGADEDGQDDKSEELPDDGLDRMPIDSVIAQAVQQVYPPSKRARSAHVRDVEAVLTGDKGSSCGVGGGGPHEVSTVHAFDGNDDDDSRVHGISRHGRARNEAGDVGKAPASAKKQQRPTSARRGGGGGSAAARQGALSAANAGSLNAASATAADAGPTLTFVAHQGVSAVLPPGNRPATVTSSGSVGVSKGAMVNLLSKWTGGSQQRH
Test: EMSA
Settings: 2 mM Ca2+, competitive assay, 25 mM MOPS pH 7.0, 0.2% Tween-20, 2 mM CaCl2, 2 mM DTT, 25 nM 32P-DNA, 0-15 nM protein, 15 min 37 C, then 0.2% glutaraldehyde 15 min 37 C, 8% TBE gel, recombinant protein

Row | Sequence | binding signal (% bound at 15 nM protein) (text also says not shifted, label: 32P on strand 1) | binding signal (% bound at 15 nM protein) (glutaraldehyde fixed, label: 32P, single-stranded DNA)
1 | GGGTGAACCTGCAGGTGGGCAAAGATGTCCTAGCAATGTAATCGTCAAGCTTTATGCCGT (double strand) [DS (double-strand)] | 10 | –
2 | GGGTGAACCTGCAGGTGGGCAAAGATGTCCTAGCAATGTAATCGTCAAGCTTTATGCCGT [SS (single-strand)] | – | 65

— publication PMC4256157
